Results: ChEMBL document CHEMBL1275254 (2010)
In brackets after ≈: the same amount, converted by molar mass.

Tested on: Burkholderia pseudomallei
Assay: Antimicrobial activity against Burkholderia pseudomallei 1026b after 24 hrs by broth microdilution method
Type: functional

Q: Which MIC does the source give for `CCn1cc(C(=O)O)c(=O)c2cc(F)c(N3CCNCC3)cc21` here?
A: 4 µg/mL (≈ 12.5 µM)

Q: With `C[C@H]1c2cccc(O)c2C(=O)C2=C(O)[C@]3(O)C(=O)C(C(N)=O)=C(O)[C@@H](N(C)C)[C@@H]3[C@@H](O)[C@@H]21.O` as the compound, how does the MIC read?
A: 0.5 µg/mL

Q: Which MIC does the source give for `CC(C)(O/N=C(\C(=O)N[C@@H]1C(=O)N2C(C(=O)[O-])=C(C[n+]3ccccc3)CS[C@H]12)c1csc(N)n1)C(=O)O` here?
A: 4 µg/mL (≈ 7.32 µM)

Q: Which MIC does the source give for `C[n+]1c2cc(N)ccc2cc2ccc(N)cc21.[Cl-]` here?
A: 32 µg/mL

Q: For `CN(C)[C@@H]1C(O)=C(C(N)=O)C(=O)[C@@]2(O)C(O)=C3C(=O)c4c(O)cccc4[C@@](C)(O)[C@H]3C[C@@H]12`, which MIC is on record?
A: 0.5 µg/mL (≈ 1.13 µM)
